Test system: TBK-IRF3 signaling cascade
Type: cell-based, human
Details: HFF-1

IFN-β
phospho-STAT1 (Tyr701) (western blot): strongly induced | phospho-TBK1 (Ser172) (western blot): strongly induced
